Results reported in article PMC2791445, “A Novel Phase Variation Mechanism in the Meningococcus Driven by a Ligand-Responsive Repressor and Differential Spacing of Distal Promoter Elements” (PLoS Pathogens, 2009).

What was measured:
Experiment in all cases: DNase I footprinting
[1] = molecular target: NadR (NMB1843), recombinant (Neisseria meningitidis MC58) (UniProt Q7DD70); details: OpI and OpII protected from 30 nM dimer, OpIII -55 to -85 also protected; Footprinting: 20 mM Tris-HCl pH 7.9, 50 mM KCl, 10 mM MgCl2, 0.01% NP-40, 10% glycerol, 200 ng salmon sperm DNA, 15 min RT; recombinant protein; protein details: N-terminal His (pET15b); label: 5'-32P at BamHI end; probe letters rebuilt from the primers and the genome
[2] = system: RNA polymerase holoenzyme (Escherichia coli); details: 0.25-5 U RNAP, protects -37 to +17, -43 to -76, -116 to -154; Footprinting: 20 mM Tris-HCl pH 7.9, 50 mM KCl, 10 mM MgCl2, 0.01% NP-40, 10% glycerol, 200 ng salmon sperm DNA, 15 min RT; commercial protein; label: 5'-32P at BamHI end; probe letters rebuilt from the primers and the genome
[3] = molecular target: RNAP alpha-subunit (UniProt P0A7Z4); details: 0.17-11 uM alpha, TAAA repeats first, then -43 to -76 and -116 to -154; Footprinting: 20 mM Tris-HCl pH 7.9, 50 mM KCl, 10 mM MgCl2, 0.01% NP-40, 10% glycerol, 200 ng salmon sperm DNA, 15 min RT; recombinant protein; protein details: N-terminal His (pHTT7f1-NHalpha); label: 5'-32P at BamHI end; probe letters rebuilt from the primers and the genome

Sequence	binding result [1]	binding result [2]	binding result [3]
TGACGTCGACGTCCTCGATTACGAAGGCAAAAAATTGGTTATCCACCATATCTAAATCCGACAAAAAGGCCGTCTGAACATTCAGACGGCAACCCATATCCTGACAAAATTAAGACACGACACCGGCAGAATTGACATCAGCATAATATGCACATATTAACAGATATTAATGCCGAACTACCTAACTGCAAGAATTAAATAAATAAATAAATAAATAAATAAATAAATAAATTGCGACAATGTATTGTATATATGCCTCCTTTCATATATACTTTAATATGTAAACAAACTTGGTGGGGATAAAATACTTACAAAAGATTTCCGCCCCATTTTTTATCCACTCACAAAGGTAATGAGCGTAG / GATCCTACGCTCATTACCTTTGTGAGTGGATAAAAAATGGGGCGGAAATCTTTTGTAAGTATTTTATCCCCACCAAGTTTGTTTACATATTAAAGTATATATGAAAGGAGGCATATATACAATACATTGTCGCAATTTATTTATTTATTTATTTATTTATTTATTTATTTAATTCTTGCAGTTAGGTAGTTCGGCATTAATATCTGTTAATATGTGCATATTATGCTGATGTCAATTCTGCCGGTGTCGTGTCTTAATTTTGTCAGGATATGGGTTGCCGTCTGAATGTTCAGACGGCCTTTTTGTCGGATTTAGATATGGTGGATAACCAATTTTTTGCCTTCGTAATCGAGGACGTCGACGTCATGCA [PnadA, 9 TAAA repeats]	binds		
TGACGTCGACGTCCTCGATTACGAAGGCAAAAAATTGGTTATCCACCATATCTAAATCCGACAAAAAGGCCGTCTGAACATTCAGACGGCAACCCATATCCTGACAAAATTAAGACACGACACCGGCAGAATTGACATCAGCATAATATGCACATATTAACAGATATTAATGCCGAACTACCTAACTGCAAGAATTAAATAAATAAATAAATAAATAAATAAATAAATAAATTGCGACAATGTATTGTATATATGCCTCCTTTCATATATACTTTAATATGTAAACAAACTTGGTGGGGATAAAATACTTACAAAAGATTTCCGCCCCATTTTTTATCCACTCACAAAGGTAATGAGCGTAG / GATCCTACGCTCATTACCTTTGTGAGTGGATAAAAAATGGGGCGGAAATCTTTTGTAAGTATTTTATCCCCACCAAGTTTGTTTACATATTAAAGTATATATGAAAGGAGGCATATATACAATACATTGTCGCAATTTATTTATTTATTTATTTATTTATTTATTTATTTAATTCTTGCAGTTAGGTAGTTCGGCATTAATATCTGTTAATATGTGCATATTATGCTGATGTCAATTCTGCCGGTGTCGTGTCTTAATTTTGTCAGGATATGGGTTGCCGTCTGAATGTTCAGACGGCCTTTTTGTCGGATTTAGATATGGTGGATAACCAATTTTTTGCCTTCGTAATCGAGGACGTCGACGTCATGCA [PnadA footprint probe for RNAP (repeat number not in text)]		binds	binds

The exact form of at least one protein or probe is not confirmed.
